Compound potency records, mixed from different reports. Data source: NIAID ChemDB in PubChem.

Common to all: tests in culture; organism: HIV-1; endpoint: EC50

ECn is the concentration giving n% inhibition of infection, replication or growth. Blank or dashed fields: not listed here. Two numbers with a dash give a range or band. Rows are shuffled and stem from different studies.

smiles | conditions | cells | changes | method | strain or isolate | result
COCCC[C@@]1(C)C(=O)c2c(O)c(=O)c(C(=O)NCc3c(F)cccc3F)cn2C[C@@H]1OC | 0% human serum | MT-4 | - | GFP | NL4-3 | 0.0022 µM
CC#Cc1cn([C@@H]2O[C@H](COP(=O)(N[C@@H](C)C(=O)OC)Oc3ccccc3)[C@@H](O)[C@@H]2O)c(=O)[nH]c1=O | - | HeLa | - | plaque count | HXB2 | >50 µM
CC(C)=CCC/C(C)=C/CC/C(C)=C/Cc1c(O)cc2c(c1OS(=O)(=O)O)CN(CCCC(=O)O)C2=O | pseudotyped | SupT1 | - | luciferase / luminescence | - | 9.6 µM
Cc1ncc(-c2ccc(OCCOC(C)(C)C)cn2)c(N2CCC(C)(C)CC2)c1[C@H](OC(C)(C)C)C(=O)O | - | MT-2 | - | luminescence | NL4-3 | 0.0018 µM
O=C1NC(=NCc2ccc(F)cc2)S/C1=C\c1ccc(-c2ccc(C(=O)O)c(O)c2)o1 | - | TZM-bl | - | β-galactosidase | NL4-3 | 1.6 µM
COC[C@@H](c1ccc(C(F)(F)F)cc1)N1CCN(C2(C)CCN(C(=O)c3c(C)ncnc3C)CC2)C[C@@H]1C | - | PBMC | M518V F519L | - | R14/S | 0.00082 µM
Cc1cc(CNC(=O)c2nc3n(c(=O)c2O)[C@H](C)COC[C@H]3N(C)C(=O)C(=O)N(C)C)ccc1F | - | HeLa P4-2 | N155H | single cycle | - | 0.008 µM
O=c1[nH]cnc2c1ncn2[C@@H]1O[C@H](CO)[C@H]1CO | - | MT-4 | - | hybridisation | IIIB | <300 µg/mL
CCOCn1c(Cc2ccccc2)c(-c2ccccc2)c(=O)[nH]c1=O | - | MT-4 | - | ELISA / antigen | - | 7 µM
Cc1ccc(NC(=O)C(=O)NC2CCNC3(CCCCC3)C2)cc1 | - | TZM-bl | - | single cycle | YTA | 24 µM
CCN(C(=O)C(=O)N(C)C)[C@H]1CC[C@H](OC)Cn2c1nc(C(=O)NCc1ccc(F)cc1)c(O)c2=O | - | HeLa P4-2 | G140S/Q148H | single cycle | - | >0.1 µM
O=C1NC(=NCCc2ccc(F)cc2)S/C1=C\c1ccc(-c2ccc(C(=O)O)c(O)c2)o1 | - | TZM-bl | - | β-galactosidase | NL4-3 | 0.75 µM
CCc1nc(CCO)n(CC)c1Oc1cc(C#N)cc(C#N)c1 | - | HeLaP4 | - | β-galactosidase / reporter gene | NL4-3 | 0.01 µM
Cc1cc(S(N)(=O)=O)ccc1NC(=O)COc1ccc(Cl)cc1C(=O)c1cc(F)cc(F)c1 | - | HeLa + HELA CD4+ | RT-E138K | β-galactosidase | HXB2 | <0.01 µM
CC(C)C1=C2[C@H]3CC[C@@H]4[C@@]5(C)CC[C@H](OC(=O)[C@@H]6C[C@H](C(=O)O)C6(C)C)C(C)(C)[C@@H]5CC[C@@]4(C)[C@]3(C)CC[C@@]2([C@@H](O)CNC(=O)c2ccc(Cl)cc2)CC1=O | - | MT-2 | - | p24 / ELISA | 92HT599 | <1 µM
COc1cc2c(cc1OCCC(=O)Nc1cc(C(=O)Nc3cc(C(=O)NCCC(=N)N)n(C)c3)n(C)c1)N=C[C@@H]1CCCN1C2=O | - | Jurkat cells | - | PCR | - | 3 µM
CC(C)C[C@H](NC(=O)CCCCCCCNC(=O)[C@]12CCC(C)(C)C[C@H]1C1=CC[C@@H]3[C@@]4(C)CC[C@H](O)C(C)(C)[C@@H]4CC[C@@]3(C)[C@]1(C)CC2)[C@@H](O)CC(=O)O | - | TZM-bl | - | luciferase / entry | NL4-3 | 40 µM
CC#Cc1cn([C@@H]2O[C@H](COP(=O)(Oc3ccccc3)Oc3ccc([N+](=O)[O-])cc3)[C@@H](O)[C@@H]2O)c(=O)[nH]c1=O | - | HeLa | - | plaque count | HXB2 | >50 µM
O=C(N[C@@H](CC1CCCCC1)C(=O)O)c1ccccc1SSc1ccccc1C(=O)N[C@@H](CC1CCCCC1)C(=O)O | - | CEM | - | cytopathic effect / XTT | IIIB | 2.45 µM
Cc1cc(S(N)(=O)=O)ccc1NC(=O)COc1ccc(Cl)cc1C(=O)c1cccc(C#N)n1 | - | HeLa + HELA CD4+ | RT-K103N P225H | β-galactosidase | HXB2 | <0.01 µM
CC[C@H]1COC[C@H](N(C)C(=O)C(=O)N(C)C)c2nc(C(=O)NCc3ccc(F)cc3)c(O)c(=O)n21 | - | HeLa P4-2 | G140S/Q148H | single cycle | - | 0.011 µM
O=C(O)CCCCCCNC(=O)c1ccccc1SSc1ccccc1C(=O)NCCCCCCC(=O)O | - | CEM | - | cytopathic effect / XTT | IIIB | 3.4 µM
CC(C)=CCOc1cc(NC(=S)c2ccoc2C)ccc1Cl | - | CEM + CEM-SS | RT-A98G | p24 | NL4-3 | 0.02 µM
Cc1ncc(-c2cnc(OCCC3CCCC3)c(F)c2)c(N2CCC(C)(C)CC2)c1[C@H](OC(C)(C)C)C(=O)O | - | MT-2 | - | luminescence | NL4-3 | 0.0066 µM
O=C(COc1ccc(Cl)cc1C(=O)c1cc2ccccc2o1)Nc1ccccc1 | - | MT-4 | RT-Y181C | cytopathic effect / propidium iodide | Nevirapine-resistant (RT Y181C) | 0.101–1 µM
CCCP(=O)(O)Cc1cccc(Nc2cc(-c3ccccc3OCc3ccccc3)ncn2)c1 | - | MT-4 | - | virus yield | - | 0.142 µM
COc1cnc(-n2cnc(C)n2)c2[nH]cc(C(=O)C(=O)N3CCC(=C(c4ccccc4)c4n[nH]c(=O)o4)CC3)c12 | - | HeLa | - | luciferase | - | <1 µM
CC1=C(/C=C/C(C)=C\C=C\C(C)=C\C(=O)O)C(C)(C)CCC1 | 10 d, chronic infection | ACH-2 (chronically infected) + ACH2 | - | MTT / p24 | IIIB | >0.1 µM
CC(C)[C@@H](CCC(=O)O)NC(=O)c1ccccc1SSc1ccccc1C(=O)N[C@H](CCC(=O)O)C(C)C | - | CEM | - | cytopathic effect / XTT | IIIB | 4.3 µM
Cc1cc(Cl)cc(C(=O)c2cc(Cl)ccc2OCC(=O)Nc2ccc(S(N)(=O)=O)cc2C)c1 | - | HeLa + HELA CD4+ | - | β-galactosidase | WTRVA | 0.011–0.1 µM
Cc1[nH]c2ccc(-c3nnc(SCC(=O)N4CCCC4)o3)cc2c1C | - | TZM-bl | - | β-galactosidase / luminescence | NL4-3 | 0.205 µM
Cc1ccc(CNC(=O)c2nc3n(c(=O)c2O)C(C)CCCC3N(C)C(=O)C(=O)N(C)C)cc1F | - | HeLa P4-2 | G140S/Q148H | single cycle | - | 0.002 µM
C[C@@]12CCCCC[C@]1(O)Cn1cc(C(=O)NCc3cccc(Cl)c3F)c(=O)c(O)c1C2=O | 0% human serum | MT-4 | - | GFP | NL4-3 | 0.0005 µM
COc1ccccc1-c1cc(Nc2cccc(P(=O)(O)O)c2)ncn1 | - | MT-4 | - | virus yield | - | 0.429 µM
CCc1nc(C)n(CC)c1Oc1cc(Cl)cc(C#N)c1 | - | HeLaP4 | - | β-galactosidase / reporter gene | NL4-3 | 0.003 µM
CC(C)=CCC/C(C)=C/CC/C(C)=C/Cc1c(O)cc2c(c1OS(=O)(=O)O)CN(CCO)C2=O | pseudotyped | SupT1 | - | luciferase / luminescence | - | 1 µM
N#CCN(CC#N)CCN1CCC(NC(=O)C(=O)Nc2ccc(Cl)cc2)CC12CCCCC2 | - | TZM-bl | - | single cycle | YTA | 5.2 µM
CC#Cc1cn([C@@H]2O[C@H](COP(=O)(O)Oc3ccccc3Cl)[C@@H](O)[C@@H]2O)c(=O)[nH]c1=O | - | HeLa | - | plaque count | HXB2 | >50 µM
CC(C)[C@H](NC(=O)OCc1ccccn1)C(=O)N[C@@H](Cc1ccccc1)[C@@H](O)C[C@H](Cc1ccccc1)NC(=O)OCc1cccnc1 | - | MT-4 | PR-M46I V82T I84V | p24 | NL4-3 | <3 µM
CC(C)C1=C2[C@H]3CC[C@@H]4[C@@]5(C)CC[C@H](OC(=O)CC(C)(C)C(=O)O)C(C)(C)[C@@H]5CC[C@@]4(C)[C@]3(C)CC[C@@]2([C@@H](O)CN(CCN(C)C)Cc2ccc(Cl)cc2)CC1=O | - | CEM-SS + MAGIC-5A | - | syncytia / visual reading / single cycle | Q23.17 | 0.0000028 µM
COCCCCCOc1ccc(-c2cnc(C)c([C@H](OC(C)(C)C)C(=O)O)c2N2CCC(C)(C)CC2)nc1 | - | MT-2 | - | luminescence | NL4-3 | 0.0014 µM
CC(C)=CCC/C(C)=C/CC/C(C)=C/Cc1c(O)cc2c(c1OS(=O)(=O)O)CN(C[C@@H]1O[C@@H](O)[C@@H](O)[C@H](O)[C@H]1O)C2=O | pseudotyped | SupT1 | - | luciferase / luminescence | - | 49.6 µM
CCOP(=O)(CC)Cc1cccc(Nc2cc(-c3ccccc3OC)ncn2)c1 | - | MT-4 | - | virus yield | - | 0.197 µM
O=C1NC(=NCCc2ccccc2)S/C1=C\c1ccc(-c2ccc(C(=O)O)c(O)c2)o1 | - | TZM-bl | - | β-galactosidase | AD8 | 1.5 µM
Cc1cc2[nH]cnc2cc1NC(=O)COc1ccc(Cl)cc1C(=O)c1cc(F)cc(C(F)(F)F)c1 | - | HeLa + HELA CD4+ | RT-V108I | β-galactosidase | HXB2 | <0.01 µM
COc1ncc(OC)c2c(C(=O)C(=O)N3CCC(=C(c4ccccc4)c4ccco4)CC3)c[nH]c12 | - | HeLa | - | luciferase | - | <1 µM
CCCP(=O)(Cc1cccc(Nc2cc(-c3ccccc3OC)ncn2)c1)OCC | - | MT-4 | - | virus yield | - | 0.296 µM
COc1cnc(Cl)c2[nH]cc(C(=O)C(=O)N3CCC(=C(C#N)c4cccnc4)CC3)c12 | - | HeLa | - | luciferase | - | <1 µM
COCC[C@@]1(C)C(=O)c2c(O)c(=O)c(C(=O)NCc3ccc(F)cc3F)cn2C[C@@H]1OC | 0% human serum | MT-4 | - | GFP | NL4-3 | 0.002 µM
CCC(C)C(NC(=O)c1ccccc1SSc1ccccc1C(=O)NC(C(=O)O)C(C)CC)C(=O)O | - | CEM | - | cytopathic effect / XTT | IIIB | 9 µM
CC#Cc1cn([C@@H]2O[C@H](COP(=O)(N[C@H](C(=O)OC)C(C)C)Oc3ccccc3)[C@@H](O)[C@@H]2O)c(=O)[nH]c1=O | - | HeLa | - | plaque count | HXB2 | >100 µM
Cc1cc(S(N)(=O)=O)ccc1NC(=O)COc1ccc(Cl)cc1C(=O)c1cc(F)cc(C(F)(F)F)c1 | - | HeLa + HELA CD4+ | RT-L100I | β-galactosidase | HXB2 | <0.01 µM
COc1cnc(-n2ccc(C)n2)c2[nH]cc(C(=O)C(=O)N3CCC(=C(c4ccccc4)c4ccc(F)cc4)CC3)c12 | - | HeLa | - | luciferase | - | <1 µM
CCCCO[C@H](C(=O)O)c1c(C)ncc(-c2ccc(N(C)CCOc3ccc(F)cc3Cl)cn2)c1N1CCC(C)(C)CC1 | - | MT-2 | - | luminescence | NL4-3 | 0.0159 µM
NC(=O)c1[nH]c2ccc(Cl)cc2c1P(=O)(c1ccccc1)c1ccccc1 | - | MT-4 | K103N | cytopathic effect / MTS | BH10 | >1250 µM
CO[C@]1(C)CC[C@@H](N(C)C(=O)C(=O)N(C)C)c2nc(C(=O)NCc3ccc(F)c(C)c3)c(O)c(=O)n2C1 | - | HeLa P4-2 | G140S/Q148H | single cycle | - | 0.01 µM
Cc1ncc(-c2cnc(OCC3CCNCC3)c(F)c2)c(N2CCC(C)(C)CC2)c1[C@H](OC(C)(C)C)C(=O)O | - | MT-2 | - | luminescence | NL4-3 | 0.116 µM
Cn1c2ccccc2c2c1cc(C#N)c(=O)n2-c1ccc([N+](=O)[O-])cc1 | - | MT-4 | - | reporter gene | - | 0.03 µM
Cc1ncc(-c2ccc(OCCOc3cc(F)cc(F)c3)nc2)c(N2CCC(C)(C)CC2)c1[C@H](OC(C)(C)C)C(=O)O | - | MT-2 | - | luminescence | NL4-3 | 0.0051 µM
CC#Cc1cn([C@@H]2O[C@H](COP(=O)(O)OCC(Cl)(Cl)Cl)[C@@H](O)[C@@H]2O)c(=O)[nH]c1=O | - | HeLa | - | plaque count | HXB2 | >50 µM
N=C(N)N1CCC(NC(=O)C(=O)Nc2ccc(Cl)cc2)CC12CCCCC2 | - | TZM-bl | - | single cycle | YTA | 13 µM
Cc1cn(C2C[C@H](N=[N+]=[N-])[C@@H](COP(=O)(Nc3cc(C(=O)Nc4cc(C(=O)Nc5cc(C(=O)NCCC#N)n(C)c5)n(C)c4)n(C)c3)OC(C)C)O2)c(=O)[nH]c1=O | - | CEM | - | p24 / antigen | - | 0.065 µM
CC#Cc1cn([C@@H]2O[C@H](COP(=O)(NCCCCCCCCCCCC)Oc3ccccc3)[C@@H](O)[C@@H]2O)c(=O)[nH]c1=O | - | HeLa | - | plaque count | HXB2 | >50 µM
O=C(O)C[C@H](CC1CC1)NC(=O)c1ccccc1SSc1ccccc1C(=O)N[C@H](CC(=O)O)CC1CC1 | - | CEM | - | cytopathic effect / XTT | IIIB | 5.2 µM
CC(C)(C)OC(=O)NCCN1CCC(NC(=O)C(=O)Nc2ccc(Cl)cc2)CC12CCCCC2 | - | TZM-bl | - | single cycle | YTA | >30 µM
COc1ncc(OC)c2c(C(=O)C(=O)N3CCC(=C(C#N)c4csc5ccccc45)CC3)c[nH]c12 | - | HeLa | - | luciferase | - | <1 µM
O=C1NC(=NCc2ccc(Cl)c(Cl)c2)S/C1=C\c1ccc(-c2ccc(C(=O)O)c(O)c2)o1 | - | TZM-bl | - | β-galactosidase | AD8 | 2 µM
Cc1nnc(C(=C2CCN(C(=O)C(=O)c3c[nH]c4c(Cl)ccnc34)CC2)c2ccccc2)o1 | - | HeLa | - | luciferase | - | <1 µM
Cc1cn(CCCCB(O)O)c(=O)[nH]c1=O | - | CEM + CEM-SS | - | plaque count | IIIB | 82 µM
CCN(C(=O)C(=O)N(C)C)[C@@H]1CC[C@H](OC)Cn2c1nc(C(=O)NCc1ccc(F)cc1)c(O)c2=O | - | HeLa P4-2 | E92Q | single cycle | - | 0.003 µM
CCCc1nc(C)n(CC)c1Oc1cc(C#N)cc(C#N)c1 | - | HeLaP4 | - | β-galactosidase / reporter gene | NL4-3 | 0.013 µM